PubChem BioAssay AID504761 | Drosophila RNAi Screening Center, 2011
Purpose: 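Insect host genes that dengue virus relies on to spread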 (primary screen). Cells: D.Mel-2 cells from Drosophila. Knock-down reagent: long dsRNA against Drosophila genes. Treatment: infection with dengue virus type 2; dose and infection time not stated. Detection: 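Cells stained for dengue envelope protein and imaged; percent of infected cells per well on duplicate plates, ranked by infection, with stained nuclei counted for cell number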. Scale: infection score: higher = more virus-infected cells; cell count: higher = more cells in the well. Hit rule: 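Low infection ranks in the two replicates (chance level up to 0.065) followed by a retest with a 1.5-fold or larger significant decrease, p below 0.05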. Calls: active = confirmed: knock-down lowers infection; inactive = not picked or not confirmed.
The deposit covers about 22,000 reagents; this is an unselected part of those with a known target gene and a result. Of all reagents, 116 (0.52%) were called active. 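Calls depend on retest data that are not deposited; infection was ranked per plate without normalising between plates; the unit of the infection score is not given.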 Raw values are not corrected between plates. Unmarked entries are inactive. A plus sign joins genes that one reagent is predicted to hit. No sequences are given here. Not given: the amount of reagent, the time to read-out.

gene knocked down	dsRNA	infection score, replicate 1	infection score, replicate 2	cell count, replicate 1	cell count, replicate 2
His2B:CG33894 + His2B:CG33872 + His2B:CG33902 + 20 more	DRSC21265	7.54	4.05	1101	1062
CG14854	DRSC14978	5.91	10.8	6729	6547
CG7860	DRSC20060	2.81	2.84	6802	6875
sqh (spaghetti squash)	DRSC18837	2.78	2.87	5894	6068
sqh (spaghetti squash)	DRSC23800	0.8	1.69	6521	6224
CG11145	DRSC06049	9.68	6.78	6228	6045
Alp13 (Alkaline phosphatase 13)	DRSC15781	4.55	22.3	6600	5455
CG11454	DRSC00310	13.7	4.34	5809	1473
CG11454	DRSC25138	2.68	4.1	6035	5874
spg (sponge)	DRSC14373	1.05 (active)	0.39	6666	6953
spg (sponge)	DRSC14881	4.02	1.1	6070	6607
CG33221 (retired record)	DRSC21201	10.2	15.2	6208	5188
Ype (Yippee)	DRSC20301	6.53	4.97	6894	6759
CG30350	DRSC07690	14.2	10.2	5188	5223
Rbsn-5 (Rabenosyn-5)	DRSC03094	11.7	5.05	5881	6729
Rbsn-5 (Rabenosyn-5)	DRSC27756	12.4	20	5985	5585
CG10747	DRSC02104	27	5.8	4492	6792
RpS4 (Ribosomal protein S4)	DRSC11272	6.01	7.65	2544	2523
Parp1 (Poly-(ADP-ribose) polymerase 1)	DRSC07725	3.28	0.76	5674	5526
Parp1 (Poly-(ADP-ribose) polymerase 1)	DRSC07778	0.88	1.13	6231	5953
Parp1 (Poly-(ADP-ribose) polymerase 1)	DRSC07780	1.07	0.95	6647	6223
ppk (pickpocket)	DRSC03595	8.4	1.29	4653	6532
ppk (pickpocket)	DRSC25361	6.16	6.41	6494	6490
Lsm12a (LSM12 homolog a)	DRSC19702	5.65	5.94	6230	6493
LRP1 (LDL receptor protein 1)	DRSC07238	3.12	12.7	6149	6602
CG6244	DRSC10609	0.75	1.65	6303	5685
Ciz1 (Ciz1 zinc finger protein)	DRSC09675	2.16	4.32	5461	5481
Ciz1 (Ciz1 zinc finger protein)	DRSC25065	5.5	11.9	5835	5531
Tom (Twin of m4)	DRSC11306	7.07	4.22	6816	7069
Tom (Twin of m4)	DRSC27660	6	14.6	2467	5593
sip3 (septin interacting protein 3)	DRSC15402	1.56	1.47	6233	5927
sip3 (septin interacting protein 3)	DRSC29484	3.2		875	349
Paics (PAICS bifunctional enzyme)	DRSC20305	3.23	3.08	6972	6829
Ilp1 (Insulin-like peptide 1)	DRSC10174	0.26	2.73	6500	6008
CG6661	DRSC10687	4.76	10.7	6203	5856
CAHbeta (Carbonic anhydrase beta)	DRSC14449	6.01	8.14	6437	6425
CG34286	DRSC21790	3.04	4.93	6840	7385
CG13856	DRSC14706	24.1	10.1	6182	5423
hbt (headbutt)	DRSC23270	2.29	10.4	6189	6533
CG32590	DRSC19594	9.62	2.27	6528	6380
CG13700	DRSC10049	2.29	5.72	6711	7010
CG13700	DRSC29871	34.5	22.2	3463	6242
RpS29 + snoRNA:Psi18S-1275	DRSC16433	14.5	19.8	3297	3797
CG7655	DRSC16275	8.6	6.97	6592	6934
Strn-Mlck (Stretchin-Mlck)	DRSC05032		0.61	367	495
Strn-Mlck (Stretchin-Mlck)	DRSC07471	11.8	9.91	6687	7074
bc10	DRSC11326	1.12	5.38	5808	5821
CecA2 (Cecropin A2)	DRSC16604	6.06		1717	327
SmydA-7 (SET and MYND domain containing, arthropod-specific, member 7)	DRSC07340	8.02	11.3	5223	4266
CG14668	DRSC12254	1.56	5.25	6912	6842
EDTP (Egg-derived tyrosine phosphatase)	DRSC07409	17	12	4891	5729
Snr1 (Snf5-related 1)	DRSC12369	2.18	1.75	4918	4804
CG12024	DRSC08229	15.7	12.9	6510	6227
CG12024	DRSC27391	23.2	4.84	5493	6030
Slu7	DRSC14729	1.52	1.31	1115	1066
Slu7	DRSC23582	3.92	22.6	1965	1916
galectin	DRSC00305	1.76	3.58	6578	6585
SerRS (Seryl-tRNA synthetase)	DRSC00496	2.3	1.6	6119	6503

Targets listed so far whose target name starts with R or r (4):
gene knocked down	dsRNA	infection score, replicate 1	infection score, replicate 2	cell count, replicate 1	cell count, replicate 2
Rbsn-5 (Rabenosyn-5)	DRSC03094	11.7	5.05	5881	6729
Rbsn-5 (Rabenosyn-5)	DRSC27756	12.4	20	5985	5585
RpS4 (Ribosomal protein S4)	DRSC11272	6.01	7.65	2544	2523
RpS29 + snoRNA:Psi18S-1275	DRSC16433	14.5	19.8	3297	3797
